Compound potency records, mixed from different reports. Data source: NIAID ChemDB in PubChem.

All rows: whole-cell or culture tests; organism: HIV-1; cell line: HT4 + HT4-6C; endpoint: EC50

a–b is a range or a potency band. An empty or dashed field is not shown. Rows are shuffled and stem from different studies. ECn is the concentration giving n% inhibition of infection, replication or growth.

compound | strain | method | value
Nc1nc(=O)n([C@@H]2CS[C@H](CO)O2)cc1F | BI-RG587-resistant | - | 0.02 µM
Cc1cn([C@H]2C[C@H](N=[N+]=[N-])[C@@H](CO)O2)c(=O)[nH]c1=O | BRU | plaque count | 0.03 µM
Cc1ccnc2c1NC(=O)c1cccnc1N2C1CC1 | LAV-1 | syncytia | <1 µM
CCCCCCCCCCCCCCCCCCOC[C@H](COP(=O)(O)C(=O)O)OC | - | plaque count | 1.3 µM
CCCCCCCCCCCCCCCCCC(=O)OCC(CO)OC(=O)CCCCCCCCCCCCCCCCC | LAI | plaque count | >1000 µM
CCCCCCCCCCCCCCCCOCCCOP(=O)(O)C(=O)O | - | syncytia | 2.5 µM
Cc1cn([C@H]2CC[C@@H](CO)O2)c(=O)[nH]c1=O | A018A Clinical isolate | plaque count | 220 µM
O=C(O)P(=O)(O)O | - | plaque count | 139 µM
CCCCCCCCCCCCOCCCOP(=O)(O)C(=O)O | - | syncytia | 8.3 µM
CCCCCCCCCCCCCCCCCCOC[C@@H](O)COP(=O)(O)C(=O)O | MN | plaque count | 2.8 µM
CN=C1CN=C(c2ccc[nH]2)c2cc(Cl)ccc2N1 | LAV-1 | plaque count | 0.5–0.8 µM
CCCCCCCCCCCCCCCCCCCCCCOCCCOP(=O)(O)C(=O)O | - | syncytia | 0.4 µM
CC(C)=CCN1Cc2cccc3[nH]c(=S)n(c23)C[C@@H]1C | BI-RG587-resistant | - | 1.7 µM
CCCCCCCCCCCCCCCCCCOC[C@@H](O)COP(=O)(O)C(=O)O | - | plaque count | 2.6 µM
Cc1cn([C@H]2C[C@H](N=[N+]=[N-])[C@@H](CO)O2)c(=O)[nH]c1=O | P026A (RT-WT) | plaque count | 0.01 µM
O=C(O)P(=O)(O)O | LAI | plaque count | 133 µM
Cc1cn([C@H]2C[C@H](N=[N+]=[N-])[C@@H](CO)O2)c(=O)[nH]c1=O | AZT-resistant A012C Clinical isolate | plaque count | 4 µM
CCCCCCCCCCCCCCCCCCOCCCOP(=O)(O)C(=O)O | - | syncytia | 1 µM

Repeating the final 2 entries:

compound	strain	method	value
Cc1cn([C@H]2C[C@H](N=[N+]=[N-])[C@@H](CO)O2)c(=O)[nH]c1=O	AZT-resistant A012C Clinical isolate	plaque count	4 µM
CCCCCCCCCCCCCCCCCCOCCCOP(=O)(O)C(=O)O	-	syncytia	1 µM